Values of other authors, collected in paper PMC8952214 (Pharmaceuticals, 2022).

System: A/RomaISS/02/08 H1N1 (Brisbane-like) oseltamivir-sensitive virus
Settings: cited from earlier work

SMILES	SI (selectivity index) = CC50/EC50, A/Roma H1N1
Cc1ccc(F)cc1NC(=O)COC(=O)c1ccc2ccccc2n1 [Compound 4]	4 × 10^3 a
Cc1ccc(S(=O)(=O)NC(C)c2ccc(-n3ccnc3)cc2)cc1C (centres unmarked) [Compound 1]	6 × 10^2 a
